{"source": "paper PMC5498545", "origin": "cited, not measured here", "target": "Nucleoprotein N-RNA rings (Rabies virus) (UniProt Q8JXF6)", "data": [{"substance": "Phosphoprotein P dimer (from UniProt P22363)", "values": [{"measurement": "Kd", "result": 160, "unit": "nM"}]}]}
